# Assay: general procedure: Fmoc solid-phase peptide synthesis; Fmoc-Rink-MBHA Low Loading Resin, 1% DVB cross-linked polystyrene, 100-200 mesh, 0.3-0.4 meq/g (EMD Millipore); diisopropylcarbodiimide/Oxyma; PyAOP/DIPEA for fatty acid-linker
# Details: whole synthesis, analytical RP-HPLC, TFA salt
substance,measurement,value
Y-Aib-QGTFTSDYSI-αMeL-LDKK((2-[2-(2-2-amino-ethoxy)-ethoxy]-acetyl)2-(γGlu)-CO—(CH2)18—CO2H)AQ-αMeK-AFIEYLLA-Aib-GPSSGAPPPS-NH2.,final HPLC purity,98.8%

# From patent publication US11542313B2 (Eli Lilly and Company, priority 2017, dated 2023)
